Publication PMC4331664, “Allosteric regulation of the partitioning of glucose-1-phosphate between glycogen and trehalose biosynthesis in Mycobacterium tuberculosis” (Biochimica et Biophysica Acta. General Subjects, 2015)

Legend:
Experiment in all cases: purified protein
Conditions in all cases: pH 8.0; 37.0 °C
[1] = test system: Nc1ncnc2c1ncn2[C@@H]1O[C@H](COP(=O)(O)OP(=O)(O)O[C@H]2O[C@H](CO)[C@@H](O)[C@H](O)[C@H]2O)[C@@H](O)[C@H]1O
[2] = test system: Nc1ncnc2c1ncn2[C@@H]1O[C@H](COP(=O)(O)OP(=O)(O)OP(=O)(O)O)[C@@H](O)[C@H]1O
[3] = test system: O=P(O)(O)O[C@H]1O[C@H](CO)[C@@H](O)[C@H](O)[C@H]1O
O=P(O)(O)OP(=O)(O)O = test system: O=P(O)(O)OP(=O)(O)O

Row | Substance | K0.5 [1] [mM] | Vmax [1] [µmol/min/mg] | K0.5 [2] [mM] | Vmax [2] [µmol/min/mg] | K0.5 [3] [mM] | Vmax [3] [µmol/min/mg] | Vmax (O=P(O)(O)OP(=O)(O)O) [µmol/min/mg]
1 | Tre-6P Sase (trehalose-6-phosphate synthase) (Mycobacterium tuberculosis H37Rv) | 0.14 ± 0.01 | 1.37 | – | – | – | – | –
2 | ADP-Glc PPase (ADP-glucose pyrophosphorylase) (Mycobacterium tuberculosis H37Rv) | 0.76 ± 0.09 | 1.41 | 1.20 ± 0.08 | 3.32 | 1.07 ± 0.09 | 3.32 | 1.41
